# What was measured:
# [1] = test system: THP-1 cells pulsed with peptide; assay: 51Cr release cytotoxicity assay of peptide specific CD8+ T cells against peptide pulsed THP-1 cells; type: cell-based, human; conditions: 50:1 E:T ratio; label = peptide pulsed on targets; STCL after 2 weeks of stimulation
# [2] = test system: autologous monocyte-derived macrophages infected with M. bovis BCG, M. tuberculosis or rVV expressing Ag85A; type: cell-based, human
substance,measurement,setting,value
FMP M158-66: HLA-A*201-restricted influenza matrix epitope [reference compound],specific lysis of peptide pulsed THP-1 cells by P242-250 reactive CD8^+ T cells,[1],no significant lysis
same,"recognition and lysis of M. bovis BCG, M. tuberculosis and rVV85A infected macrophages by peptide specific CTLs",[2],no recognition
